Pooled drug test results. Numbers come from NIAID ChemDB, via PubChem.

Shared fields: tests in culture; organism: Mycobacterium avium complex; read-out: MIC

An empty or dashed field is not shown. Neighbouring rows are from separate reports.

{"structure": "CN[C@@H]1[C@@H](O)[C@@H](O[C@@H]2[C@@H](O)[C@H](O[C@H]3O[C@H](CN)CC[C@H]3N)[C@@H](N)C[C@H]2N)OC[C@]1(C)O", "strain": "Isolate 93", "value": "6.25 µg/mL"}
{"structure": "CO[C@H]1/C=C/O[C@@]2(C)Oc3c(C)c(O)c4c(=O)c(c5oc6cc(N7CCNCC7)cc(=O)c6nc5c4c3=C2O)NC(=O)/C(C)=C\\C=C\\[C@H](C)[C@H](O)[C@@H](C)[C@@H](O)[C@@H](C)[C@H](OC(C)=O)[C@@H]1C", "strain": "31F093T", "value": "0.6 µg/mL"}
{"structure": "NCCC(O)C(N)CC(=O)NC1CNC(=O)C(C2CCN=C(N)N2)NC(=O)/C(=C/NC(N)=O)NC(=O)C(CO)NC(=O)C(CO)NC1=O", "strain": "13008 (serotype 20)", "value": "3.2 µg/mL"}
{"structure": "CO[C@H]1/C=C/O[C@@]2(C)Oc3c(C)c(O)c4c(O)c(c(/C=N/N5CCN(C)CC5)c(O)c4c3C2=O)NC(=O)/C(C)=C\\C=C\\[C@H](C)[C@H](O)[C@@H](C)[C@@H](O)[C@@H](C)[C@H](OC(C)=O)[C@@H]1C", "strain": "31F093T", "value": "5 µg/mL"}
{"structure": "CO[C@H]1/C=C/O[C@@]2(C)Oc3c(C)c(O)c4c(O)c(c5c(c4c3C2=O)NC2(CCN(CC(C)C)CC2)N=5)=NC(=O)/C(C)=C\\C=C\\[C@H](C)[C@H](O)[C@@H](C)[C@@H](O)[C@@H](C)[C@H](OC(C)=O)[C@@H]1C", "strain": "9141", "value": "1 µg/mL"}
{"structure": "NCC[C@H](O)C(=O)N[C@@H]1C[C@H](N)[C@@H](O[C@H]2O[C@H](CN)[C@@H](O)[C@H](O)[C@H]2O)[C@H](O)[C@H]1O[C@H]1O[C@H](CO)[C@@H](O)[C@H](N)[C@H]1O", "strain": "Strain 1", "value": "1 µg/mL"}
{"structure": "NC[C@@H]1O[C@H](O[C@H]2[C@@H](O)[C@H](O[C@@H]3[C@@H](O)[C@H](N)C[C@H](N)[C@H]3O[C@H]3O[C@H](CO)[C@@H](O)[C@H](O)[C@H]3N)O[C@@H]2CO)[C@H](N)[C@@H](O)[C@@H]1O", "strain": "CH-2/HIV+", "value": "3.12 µg/mL"}
{"structure": "CN[C@@H]1[C@H](O[C@H]2[C@H](O[C@H]3[C@H](O)[C@@H](O)[C@H](N=C(N)N)[C@@H](O)[C@@H]3N=C(N)N)O[C@@H](C)[C@]2(O)C=O)O[C@@H](CO)[C@H](O)[C@H]1O", "strain": "Isolate C-37", "value": ">400 µg/mL"}
{"structure": "CC1CN(c2c(F)cc3c(=O)c(C(=O)O)cn(C4CC4)c3c2F)CCN1", "strain": "1760694", "value": "4 µg/mL"}
{"structure": "CO[C@H]1/C=C/O[C@@]2(C)Oc3c(C)c(O)c4c(O)c(c5c(c4c3C2=O)NC2(CCN(CC(C)C)CC2)N=5)=NC(=O)/C(C)=C\\C=C\\[C@H](C)[C@H](O)[C@@H](C)[C@@H](O)[C@@H](C)[C@H](OC(C)=O)[C@@H]1C", "strain": "N-260", "value": "0.2 µg/mL"}
{"structure": "CO[C@H]1/C=C/O[C@@]2(C)Oc3c(C)c(O)c4c(=O)c(c5oc6cc(N(C)C)cc(=O)c6nc5c4c3=C2O)NC(=O)/C(C)=C\\C=C\\[C@H](C)[C@H](O)[C@@H](C)[C@@H](O)[C@@H](C)[C@H](OC(C)=O)[C@@H]1C", "strain": "31F093T", "value": "0.3 µg/mL"}
{"structure": "CN(C)C1CCN(c2c(F)cc3c(=O)c(C(=O)O)cn(C4CC4)c3c2F)C1", "strain": "1915112", "value": "1 µg/mL"}
{"structure": "CO[C@H]1/C=C/O[C@@]2(C)Oc3c(C)c(O)c4c(O)c(c(/C=N/N5CCN(C)CC5)c(O)c4c3C2=O)NC(=O)/C(C)=C\\C=C\\[C@H](C)[C@H](O)[C@@H](C)[C@@H](O)[C@@H](C)[C@H](OC(C)=O)[C@@H]1C", "strain": "MO-1", "value": "16 µg/mL"}
{"structure": "NNC(=O)c1ccncc1", "strain": "1008", "value": "2 µg/mL"}
{"structure": "CC1COc2c(N3CCN(C)CC3)c(F)cc3c(=O)c(C(=O)O)cn1c23", "strain": "733/HIV+", "value": "16 µg/mL"}
{"structure": "CO/N=C(\\C(=O)N[C@@H]1C(=O)N2C(C(=O)O)=CCS[C@H]12)c1csc(N)n1", "strain": "35 isolates", "value": "6.25 µg/mL"}
{"structure": "CN(C)c1c(F)c(N2CCC(N(C)C)C2)c(F)c2c1c(=O)c(C(=O)O)cn2C1CC1", "strain": "1988557", "value": "32 µg/mL"}
{"structure": "C[C@@H]1CN(c2c(F)c(N)c3c(=O)c(C(=O)O)cn(C4CC4)c3c2F)C[C@H](C)N1", "strain": "22", "read by": "broth dilution", "value": "0.12 µg/mL"}
{"structure": "CCC(C)N1CCN(c2cc(=O)c3nc4c(oc3c2)c2c(=O)c3c(O)c(C)c5c(c34)=C(O)[C@@](C)(O/C=C/[C@H](OC)[C@@H](C)[C@@H](OC(C)=O)[C@H](C)[C@H](O)[C@H](C)[C@@H](O)[C@@H](C)/C=C/C=C(/C)C(=O)N2)O5)CC1", "strain": "31F093T", "value": "0.035 µg/mL"}
{"structure": "CC1CN(c2c(F)cc3c(=O)c(C(=O)O)cn(C4CC4)c3c2F)C(C)CN1", "strain": "1172733", "value": "4 µg/mL"}
{"structure": "NC[C@H]1O[C@H](O[C@H]2[C@H](O)[C@@H](O[C@H]3O[C@H](CO)[C@@H](O)[C@H](N)[C@H]3O)[C@H](N)C[C@@H]2N)[C@H](O)[C@@H](O)[C@@H]1O", "value": "<3 µg/mL"}
{"structure": "CC[C@@H](CO)NCCN[C@@H](CC)CO", "strain": "101", "value": "16 µg/mL"}
{"structure": "NCC1CCN(c2c(F)cc3c(=O)c(C(=O)O)cn(C4CC4)c3c2F)C1", "strain": "1988557", "value": "2 µg/mL"}
{"structure": "CN[C@@H]1[C@H](O[C@H]2[C@H](O[C@H]3[C@H](O)[C@@H](O)[C@H](N=C(N)N)[C@@H](O)[C@@H]3N=C(N)N)O[C@@H](C)[C@]2(O)C=O)O[C@@H](CO)[C@H](O)[C@H]1O", "strain": "N-444", "value": "4 µg/mL"}
{"structure": "CN[C@@H]1[C@H](O[C@H]2[C@H](O[C@H]3[C@H](O)[C@@H](O)[C@H](N=C(N)N)[C@@H](O)[C@@H]3N=C(N)N)O[C@@H](C)[C@]2(O)C=O)O[C@@H](CO)[C@H](O)[C@H]1O", "strain": "TMC 1469", "value": "1.56 µg/mL"}
{"structure": "CO[C@H]1/C=C/O[C@@]2(C)Oc3c(C)c(O)c4c(=O)c(c5oc6cc(N(C)CC(C)C)cc(=O)c6nc5c4c3=C2O)NC(=O)/C(C)=C\\C=C\\[C@H](C)[C@H](O)[C@@H](C)[C@@H](O)[C@@H](C)[C@H](OC(C)=O)[C@@H]1C", "strain": "31F093T", "value": "0.6 µg/mL"}
{"structure": "O=C1/C(=C\\c2ccc(Cl)cc2)N=C(c2ccccc2)N1C(=S)N/N=C/c1ccccc1", "strain": "NJ211", "value": "0.25 µg/mL"}
{"structure": "NC[C@H]1O[C@H](O[C@H]2[C@H](O)[C@@H](O[C@H]3O[C@H](CO)[C@@H](O)[C@H](N)[C@H]3O)[C@H](N)C[C@@H]2N)[C@H](O)[C@@H](O)[C@@H]1O", "strain": "N-289 (HIV-)", "value": "4 µg/mL"}
{"structure": "CC[C@H]1OC(=O)[C@H](C)[C@@H](O[C@H]2C[C@@](C)(OC)[C@@H](O)[C@H](C)O2)[C@H](C)[C@@H](O[C@@H]2O[C@H](C)C[C@H](N(C)C)[C@H]2O)[C@](C)(OC)C[C@@H](C)C(=O)[C@H](C)[C@@H](O)[C@]1(C)O", "strain": "N-444", "value": "8 µg/mL"}
{"structure": "NCC[C@H](O)C(=O)N[C@@H]1C[C@H](N)[C@@H](O[C@H]2O[C@H](CN)[C@@H](O)[C@H](O)[C@H]2O)[C@H](O)[C@H]1O[C@H]1O[C@H](CO)[C@@H](O)[C@H](N)[C@H]1O", "strain": "101", "value": "16 µg/mL"}
{"structure": "CC[C@@H](CO)NCCN[C@@H](CC)CO", "strain": "1171", "value": "8 µg/mL"}
{"structure": "NCCC[C@H](N)CC(=O)N[C@H]1CNC(=O)[C@H]([C@H]2C[C@H](O)NC(N)=N2)NC(=O)/C(=C/NC(N)=O)NC(=O)[C@H](CO)NC(=O)[C@H](CO)NC1=O", "strain": "Isolate 64", "value": "50 µg/mL"}
{"structure": "CO[C@H]1/C=C/O[C@@]2(C)Oc3c(C)c(O)c4c(O)c(c(/C=N/N5CCN(C)CC5)c(O)c4c3C2=O)NC(=O)/C(C)=C\\C=C\\[C@H](C)[C@H](O)[C@@H](C)[C@@H](O)[C@@H](C)[C@H](OC(C)=O)[C@@H]1C", "strain": "CIPT 140310006", "value": "0.1 µg/mL"}
{"structure": "NC[C@@H]1O[C@H](O[C@H]2[C@@H](O)[C@H](O[C@@H]3[C@@H](O)[C@H](N)C[C@H](N)[C@H]3O[C@H]3O[C@H](CO)[C@@H](O)C[C@H]3N)O[C@@H]2CO)[C@H](N)[C@@H](O)[C@@H]1O[C@H]1O[C@H](CO)[C@@H](O)[C@H](O)[C@@H]1O", "strain": "Isolate 49", "value": "25 µg/mL"}
{"structure": "CO[C@H]1/C=C/O[C@@]2(C)Oc3c(C)c(O)c4c(O)c(c(/C=N/N5CCN(C)CC5)c(O)c4c3C2=O)NC(=O)/C(C)=C\\C=C\\[C@H](C)[C@H](O)[C@@H](C)[C@@H](O)[C@@H](C)[C@H](OC(C)=O)[C@@H]1C", "strain": "711/HIV-", "value": "16 µg/mL"}
{"structure": "NC1CCN(c2c(F)cc3c(=O)c(C(=O)O)cn(C4CC4)c3c2Cl)C1", "strain": "101", "value": "15 µg/mL"}
{"structure": "CC1CN(c2c(F)cc3c(=O)c(C(=O)O)cn(C4CC4)c3c2F)CC(C)N1", "strain": "1760694", "value": "2 µg/mL"}
{"structure": "CO[C@H]1/C=C/O[C@@]2(C)Oc3c(C)c(O)c4c(O)c(c(/C=N/N5CCN(C)CC5)c(O)c4c3C2=O)NC(=O)/C(C)=C\\C=C\\[C@H](C)[C@H](O)[C@@H](C)[C@@H](O)[C@@H](C)[C@H](OC(C)=O)[C@@H]1C", "strain": "N-444", "value": "8 µg/mL"}
{"structure": "NCC[C@H](O)C(=O)N[C@@H]1C[C@H](N)[C@@H](O[C@H]2O[C@H](CN)[C@@H](O)[C@H](O)[C@H]2O)[C@H](O)[C@H]1O[C@H]1O[C@H](CO)[C@@H](O)[C@H](N)[C@H]1O", "strain": "541/HIV+", "value": "<1.25 µg/mL"}
{"structure": "N[C@@H]1CN(c2c(F)cc3c(=O)c(C(=O)O)cn([C@@H]4C[C@@H]4F)c3c2Cl)CC12CC2", "strain": "N-444", "value": "1 µg/mL"}
{"structure": "NC(=O)c1cnccn1", "value": ">5 µg/mL"}
{"structure": "CO[C@H]1/C=C/O[C@@]2(C)Oc3c(C)c(O)c4c(O)c(c5c(c4c3C2=O)NC2(CCN(CC(C)C)CC2)N=5)=NC(=O)/C(C)=C\\C=C\\[C@H](C)[C@H](O)[C@@H](C)[C@@H](O)[C@@H](C)[C@H](OC(C)=O)[C@@H]1C", "strain": "LPR", "value": "2 µg/mL"}
{"structure": "NNC(=O)c1ccncc1", "strain": "13016 (serotype 4)", "value": "0.8 µg/mL"}
{"structure": "CC[C@H]1OC(=O)[C@H](C)[C@@H](O[C@H]2C[C@@](C)(OC)[C@@H](O)[C@H](C)O2)[C@H](C)[C@@H](O[C@@H]2O[C@H](C)C[C@H](N(C)C)[C@H]2O)[C@](C)(OC)C[C@@H](C)C(=O)[C@H](C)[C@@H](O)[C@]1(C)O", "strain": "Strain 1", "value": "0.5 µg/mL"}
{"structure": "CO[C@H]1/C=C/O[C@@]2(C)Oc3c(C)c(O)c4c(=O)c(c5oc6cc(N7CCN(CC(C)C)CC7)cc(=O)c6nc5c4c3=C2O)NC(=O)/C(C)=C\\C=C\\[C@H](C)[C@H](O)[C@@H](C)[C@@H](O)[C@@H](C)[C@H](OC(C)=O)[C@@H]1C", "strain": "N-444", "value": "0.06 µg/mL"}
{"structure": "CN[C@@H]1[C@H](O[C@H]2[C@H](O[C@H]3[C@H](O)[C@@H](O)[C@H](N=C(N)N)[C@@H](O)[C@@H]3N=C(N)N)O[C@@H](C)[C@]2(O)C=O)O[C@@H](CO)[C@H](O)[C@H]1O", "value": ">3 µg/mL"}
{"structure": "CO[C@H]1/C=C/O[C@@]2(C)Oc3c(C)c(O)c4c(O)c(c(/C=N/N5CCN(C)CC5)c(O)c4c3C2=O)NC(=O)/C(C)=C\\C=C\\[C@H](C)[C@H](O)[C@@H](C)[C@@H](O)[C@@H](C)[C@H](OC(C)=O)[C@@H]1C", "strain": "N-966", "value": ">100 µg/mL"}

The last 7 rows once more:

structure	strain	read by	value
NC(=O)c1cnccn1			>5 µg/mL
CO[C@H]1/C=C/O[C@@]2(C)Oc3c(C)c(O)c4c(O)c(c5c(c4c3C2=O)NC2(CCN(CC(C)C)CC2)N=5)=NC(=O)/C(C)=C\C=C\[C@H](C)[C@H](O)[C@@H](C)[C@@H](O)[C@@H](C)[C@H](OC(C)=O)[C@@H]1C	LPR		2 µg/mL
NNC(=O)c1ccncc1	13016 (serotype 4)		0.8 µg/mL
CC[C@H]1OC(=O)[C@H](C)[C@@H](O[C@H]2C[C@@](C)(OC)[C@@H](O)[C@H](C)O2)[C@H](C)[C@@H](O[C@@H]2O[C@H](C)C[C@H](N(C)C)[C@H]2O)[C@](C)(OC)C[C@@H](C)C(=O)[C@H](C)[C@@H](O)[C@]1(C)O	Strain 1		0.5 µg/mL
CO[C@H]1/C=C/O[C@@]2(C)Oc3c(C)c(O)c4c(=O)c(c5oc6cc(N7CCN(CC(C)C)CC7)cc(=O)c6nc5c4c3=C2O)NC(=O)/C(C)=C\C=C\[C@H](C)[C@H](O)[C@@H](C)[C@@H](O)[C@@H](C)[C@H](OC(C)=O)[C@@H]1C	N-444		0.06 µg/mL
CN[C@@H]1[C@H](O[C@H]2[C@H](O[C@H]3[C@H](O)[C@@H](O)[C@H](N=C(N)N)[C@@H](O)[C@@H]3N=C(N)N)O[C@@H](C)[C@]2(O)C=O)O[C@@H](CO)[C@H](O)[C@H]1O			>3 µg/mL
CO[C@H]1/C=C/O[C@@]2(C)Oc3c(C)c(O)c4c(O)c(c(/C=N/N5CCN(C)CC5)c(O)c4c3C2=O)NC(=O)/C(C)=C\C=C\[C@H](C)[C@H](O)[C@@H](C)[C@@H](O)[C@@H](C)[C@H](OC(C)=O)[C@@H]1C	N-966		>100 µg/mL